Results published in patent US20190298669A1 (priority 2018, published 2019).

Tests used:
[1] = test system: FPV; test: In vitro activity in cell culture, FPV; assay type: cell-based, influenza A virus
[2] = test system: H3N2 A/Victoria/03/1975, H5N1 A/mallard/Bavaria/1/2006, H7N7 A/FPV/Bratislava/79, H7N9 A/Anhui/1/2013; conditions: 10 M CI-1040, A549 cells
[3] = test system: IAV A/PR8/34 (H1N1) RNP complexes; test: Immunofluorescence of nuclear export of viral RNP complexes in A549 cells; assay type: cell-based, influenza A virus; conditions: 20 μM, 6 hours post infection
[4] = test system: H1N1pdm09 A/Regensburg/06/2009
[5] = test system: A/Mallard/Bavaria/01/2006 (MB 1, H5N1); test: In vitro study in infected MDCK II cells; assay type: cell-based, influenza A virus; conditions: MOI 0.001, 24 h
[6] = test system: panH1N1 (RB1); test: In vitro activity in cell culture, panH1N1; assay type: cell-based, influenza A virus

SMILES: O=C(NOCC1CC1)c1ccc(F)c(F)c1Nc1ccc(I)cc1Cl
- potency in cell culture [1]: also potent
- antiviral activity against prototype strains [2]: consistently strong antiviral activity
- nuclear export of viral RNPs [3]: blocks the export step
- EC50 [4]: 26 nM
- potency in cell culture [5]: highly potent
- potency in cell culture [6]: also potent
